PubChem BioAssay AID624099 – ICCB-Longwood, 2012
Shown is a random part of about 21,000 deposited reagents. In the full data, 497 (2.4%) got an active call. 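Higher z means weaker E2 silencing; only reporter increases were scored, and knock-downs that hurt cell survival may mask genuine repressor factors.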 Reagents against one gene are numbered here.

Test: 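Knock-downs relieving repression by E2 of an HPV18 LCR luciferase reporter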 (primary screen)
Cells: human C33A cervical carcinoma cells (HPV-negative) stably expressing BPV1 E2 and an HPV18 LCR luciferase reporter
Reagents: siRNA pool against human genes, 40 nM
Time to read-out: 72 h
Measurement: 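Per-well luciferase luminescence, z-scored on each plate against the plate mean and SD with control wells left out, then averaged across three replicate plates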
Reading the numbers: mean z-score and z-score: higher = stronger reporter signal, weaker E2 silencing
Active means: 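Mean z ≥ 2 together with z ≥ 2 in two or more of the three replicates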

| gene symbol | reagent no. | mean z-score | z-score, replicate A | z-score, replicate B | z-score, replicate C | Outcome |
| --- | --- | --- | --- | --- | --- | --- |
| AZI2 | 1 | -1.22 | -1.24 | -1.18 | -1.22 | inactive |
| PSMG2 | 1 | 0.09 | -0.18 | -0.06 | 0.53 | inactive |
| TXNL1 | 1 | -0.4 | -0.66 | -0.3 | -0.24 | inactive |
| C6orf15 | 1 | -0.7 | -0.43 | -0.65 | -1.01 | inactive |
| COMMD2 | 1 | -1.04 | -1.05 | -0.8 | -1.27 | inactive |
| CEP78 | 1 | -0.57 | -0.57 | -0.7 | -0.45 | inactive |
| HMMR | 1 | 0.11 | 0.75 | -0.17 | -0.25 | inactive |
| PRR30 | 1 | -0.6 | -0.48 | -0.73 | -0.6 | inactive |
| EIF2D | 1 | 0.8 | 0.64 | 0.62 | 1.15 | inactive |
| KCND2 | 1 | -0.84 | -1 | -0.57 | -0.94 | inactive |
| ALG11 | 1 | 0.35 | 0 | 0.7 | 0.35 | inactive |
| LRRC56 | 1 | -1.17 | -1.15 | -1.23 | -1.12 | inactive |
| TMEM41B | 1 | 0.79 | 0.79 | 0.65 | 0.92 | inactive |
| DMRTC2 | 1 | -0.34 | -0.61 | -0.65 | 0.24 | inactive |
| C10orf143 | 1 | -1.34 | -1.4 | -1.21 | -1.41 | inactive |
| PALD1 | 1 | -1.28 | -1.32 | -1.19 | -1.33 | inactive |
| LOC402670 (retired record) | 1 | -0.54 | -0.49 | -0.81 | -0.32 | inactive |
| SLC6A19 | 1 | -1.42 | -1.19 | -1.63 | -1.45 | inactive |
| LINC01538 | 1 | 0.68 | 0.79 | 0.55 | 0.69 | inactive |
| LRRTM3 | 1 | 0.63 | 0.78 | 0.64 | 0.48 | inactive |
| SPATA25 | 1 | -1.28 | -1.44 | -1.14 | -1.25 | inactive |
| HPCAL1 | 1 | -0.16 | 0.04 | -0.34 | -0.2 | inactive |
| DCAF8L2 | 1 | -0.9 | -1.09 | -1.05 | -0.56 | inactive |
| DCAF8L2 | 2 | 0.95 | 0.78 | 1.24 | 0.83 | inactive |
| ARFGEF1 | 1 | -1.32 | -1.33 | -1.3 | -1.33 | inactive |
| SPRY1 | 1 | -0.12 | -0.05 | -0.32 | 0.02 | inactive |
| MBIP | 1 | 0.58 | 0.37 | 0.8 | 0.56 | inactive |
| HNRNPF | 1 | 1.65 | 1.58 | 2.07 | 1.29 | inactive |
| TAF9 | 1 | 0.52 | 0.45 | 0.31 | 0.81 | inactive |
| GRIN2C | 1 | 2.7 | 2.75 | 2.6 | 2.76 | active |
| UQCRB | 1 | 0.12 | 0.24 | -0.19 | 0.31 | inactive |
| COL5A1 | 1 | 0.35 | -0.01 | 0.57 | 0.48 | inactive |
| FCGR1BP | 1 | 1.72 | 1.97 | 1.65 | 1.54 | inactive |
| SRGAP2C | 1 | -0.27 | 0.51 | -0.68 | -0.64 | inactive |
| CENPC | 1 | -0.63 | -0.61 | -0.65 | -0.64 | inactive |
| TEDC1 | 1 | -0.34 | -0.23 | -0.59 | -0.21 | inactive |
| JADE2 | 1 | -0.94 | -0.91 | -1.12 | -0.78 | inactive |
| LOC253883 (retired record) | 1 | 0.33 | 0.4 | -0.07 | 0.65 | inactive |
| CEP20 | 1 | 0.93 | 1.33 | 0.73 | 0.73 | inactive |
| TMEM171 | 1 | 0.6 | 0.9 | 0.25 | 0.66 | inactive |
| TMEM8B | 1 | -0.04 | 0.13 | -0.1 | -0.15 | inactive |
| FCRLA | 1 | 0.21 | 0.44 | 0.07 | 0.13 | inactive |
| PALB2 | 1 | -0.6 | -0.16 | -1.1 | -0.56 | inactive |
| DOC2B | 1 | 1.68 | 1.72 | 1.76 | 1.56 | inactive |
| RPUSD1 | 1 | -1.18 | -1.29 | -1.29 | -0.98 | inactive |
| PLSCR2 | 1 | 1.69 | 1.76 | 1.39 | 1.91 | inactive |
| TMEM164 | 1 | -0.71 | -0.64 | -0.6 | -0.9 | inactive |
| C3orf53 (retired record) | 1 | -1.29 | -1.23 | -1.07 | -1.58 | inactive |
| PPWD1 | 1 | 0.11 | -0.08 | -0.09 | 0.5 | inactive |
| RAB18 | 1 | -0.25 | -0.38 | -0.24 | -0.12 | inactive |
| ARL6IP1 | 1 | -0.8 | -0.82 | -0.93 | -0.66 | inactive |
| DHX32 | 1 | 0.73 | 0.29 | -0.11 | 2.02 | inactive |
| APOBR | 1 | -0.66 | -0.55 | -0.81 | -0.61 | inactive |
| EREG | 1 | -0.52 | -0.41 | -0.56 | -0.58 | inactive |
| FAM3C | 1 | -0.3 | -0.28 | -0.3 | -0.31 | inactive |
| MAMDC2 | 1 | -0.03 | -0.26 | -0.04 | 0.22 | inactive |
| ARL5C | 1 | -1.32 | -1.35 | -1.47 | -1.16 | inactive |
| LY6G6C | 1 | 0.11 | -0.08 | 0.11 | 0.31 | inactive |
| AQP3 | 1 | -1.91 | -1.64 | -1.96 | -2.15 | inactive |
| PON1 | 1 | 0.56 | 1.13 | 0.21 | 0.35 | inactive |
| LRRC7 | 1 | -1.24 | -0.85 | -1.16 | -1.72 | inactive |
| HECW1 | 1 | 1.75 | 1.67 | 1.91 | 1.67 | inactive |
| ABCB6 | 1 | -0.71 | -0.58 | -0.79 | -0.75 | inactive |
| OSTN | 1 | 3.64 | 3.64 | 3.68 | 3.6 | active |
| CDC25C | 1 | 0.24 | 0.4 | 0.15 | 0.17 | inactive |
| REG3A | 1 | 1.59 | 1.55 | 1.66 | 1.56 | inactive |
| ZNF362 | 1 | 0.94 | 0.95 | 0.69 | 1.19 | inactive |
| ZBTB47 | 1 | -0.58 | -0.62 | -0.66 | -0.46 | inactive |
| SDHC | 1 | 0.08 | 0.15 | 0.39 | -0.29 | inactive |
| SARNP | 1 | -0.54 | -0.41 | -0.52 | -0.69 | inactive |
| NAPRT | 1 | 2.49 | 2.55 | 2.11 | 2.82 | active |
| ACBD3 | 1 | -0.46 | -0.39 | -0.35 | -0.64 | inactive |
| HLA-DOB | 1 | -2.07 | -2.21 | -2.13 | -1.88 | inactive |
